Columns and labels:
[1] = test system: HIV strain RT-MDR (74V, 41L, 106A, 215Y); conditions: read-out: IC50 p24, PBMNC
[2] = target: purified recombinant HIV RT (Human immunodeficiency virus type 1 group M subtype B, UniProt P04585); test: Purified RT assay, cell-free Quan-T-RT system (scintillation proximity); format: biochemical; conditions: read-out: RRT (IC50[rRT])
[3] = test system: HIV strain HTLV-IIIB (WT); test: p24 production in PBMNC infected with HTLV-IIIB; format: cell-based, HIV-1; conditions: read-out: IC50 p24

Structure (SMILES)	IC50 [1]	IC50 [2]	IC50 [3]
S=C(NCCN1CCOCC1)Nc1ccc(Br)cn1	> 1 µM	> 10 µM	3.8 µM
S=C(NCCC1=CCCCC1)Nc1ccc(Cl)cn1	–	3.7 µM	0.003 µM
S=C(NCCN1CCCCC1)Nc1ccc(Br)cn1	> 1 µM	5.8 µM	< 0.001 µM
